Source: patent US20180291088A1

B1: EVB166 monoclonal antibody (antibody, V domains shown)
chain 1: QVQLVQSGAEVKKPGSSVKVSCKTSGGTLSNYAISWVRQAPGQGLEWMGGTIPTLGMSTYAPNFQGRVAITADKSTSTAYMELSSLRSDDTAVYYCATMGSADTSFYFYMDVWGKGTTVTVSS
chain 2: EIVLTQSPGTLSLSPGERATLSCRASQSVSSSYLAWYQQKPGQAPRLLIYGTSSRATGIPDRFSGSASGTDFTLTISRLEPEDFAVYYCQQYAYSPFTFGPGTKVDIK
B2: EVB165 monoclonal antibody (antibody, V domains shown)
chain 1: DVQLVESGGGVVQPGGSLKLACVVSGFRFSDYWMSWVRQAPGKGLEWVANIKQDGSGKYYVDSVKGRFTVSRDNAKNSLYLHMTSLGAEDTAVYFCARAAPTGSYTNILVDNVHFDYWGQGILVAVSS
chain 2: GIQLTQSPGSLSASVGDSVTITCRPNQNIATYINWYQQTPGKAPKLLIYAASILQSGVPSRFSGAGSGTHFTLIISTLQPEDSATYYCQQSYSTPWTFGQGTKVEIK
B3: EVB100 monoclonal antibody (antibody, V domains shown)
chain 1: QVQLQESGPGLVKPSDTLSLTCTVSGGSLSSFYWSWIRQPPGKGLEWIGYIYYSGSPNYSPSLESRVTMSVDTTRNQISLKLDSVTAADTAVYYCVRASRSYYWGSYRPTAFDSWGQGTLVTVSS
chain 2: SYELTQPLSVSVSPGQTAIFTCSGDNLGDKYVCWFQQRPGQSPMLLIYQDNKRPSGIPERFSGSNSGNTATLTISGTQSTDEADYYCQTWDSTVVFGGGTKLTVL

Legend:
[1] = target: EBOV GP (Mayinga variant) on pseudotyped lentivirus particles (EBOV (Zaire), Mayinga variant) (UniProt Q05320); assay: cell-based or functional assay
[2] = target: EBOV GP (Mayinga variant) on pseudotyped lentivirus particles (EBOV (Zaire), Mayinga variant), Q05320; assay: cell-based or functional assay

Molecule | IC50 (µg/mL), neutralization of EBOV GP-pseudotyped lentivirus on HEK293T [1] | IC90 (µg/mL), neutralization of EBOV GP-pseudotyped lentivirus on HEK293T [1] | IC99 (µg/mL), neutralization of EBOV GP-pseudotyped lentivirus on HEK293T [1] | IC50 (µg/mL), neutralization of EBOV GP-pseudotyped lentivirus on HEK293T [2] | IC90 (µg/mL), neutralization of EBOV GP-pseudotyped lentivirus on HEK293T [2] | IC99 (µg/mL), neutralization of EBOV GP-pseudotyped lentivirus on HEK293T [2]
KZ52 monoclonal antibody | 0.06 µg/mL | 17.2 µg/mL | > 1000 µg/mL | – | – | –
B1 | – | – | – | 0.86 µg/mL | 6.84 µg/mL | 97.2 µg/mL
B2 | – | – | – | 1.77 µg/mL | 19.5 µg/mL | 267 µg/mL
B3 | – | – | – | 0.06 µg/mL | 0.61 µg/mL | 7.58 µg/mL
